From ChEMBL document CHEMBL1152646, “Synthesis, molecular docking and biological evaluation of metronidazole derivatives as potent Helicobacter pylori urease inhibitors” (Bioorg Med Chem, 2009)

By UniProt entry, the sequences of proteins in these tests, tags left out. Where a name states a change or a piece, a line headed by the entry shows the natural chain unless it says otherwise.
UniProt P69996: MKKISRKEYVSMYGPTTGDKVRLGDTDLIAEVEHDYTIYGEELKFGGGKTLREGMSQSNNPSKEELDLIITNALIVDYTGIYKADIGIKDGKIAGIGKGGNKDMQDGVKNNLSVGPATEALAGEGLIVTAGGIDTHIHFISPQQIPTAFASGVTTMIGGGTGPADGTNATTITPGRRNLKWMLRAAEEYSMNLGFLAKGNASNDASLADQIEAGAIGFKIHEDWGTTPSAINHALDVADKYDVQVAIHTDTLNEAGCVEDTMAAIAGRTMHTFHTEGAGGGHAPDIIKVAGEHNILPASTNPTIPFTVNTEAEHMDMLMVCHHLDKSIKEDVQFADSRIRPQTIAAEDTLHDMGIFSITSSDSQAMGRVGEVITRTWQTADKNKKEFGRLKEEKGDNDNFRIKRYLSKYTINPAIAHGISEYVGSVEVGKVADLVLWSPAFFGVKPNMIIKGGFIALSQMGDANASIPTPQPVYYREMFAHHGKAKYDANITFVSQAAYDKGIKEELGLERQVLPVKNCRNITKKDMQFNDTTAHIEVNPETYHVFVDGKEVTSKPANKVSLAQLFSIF
UniProt P14916: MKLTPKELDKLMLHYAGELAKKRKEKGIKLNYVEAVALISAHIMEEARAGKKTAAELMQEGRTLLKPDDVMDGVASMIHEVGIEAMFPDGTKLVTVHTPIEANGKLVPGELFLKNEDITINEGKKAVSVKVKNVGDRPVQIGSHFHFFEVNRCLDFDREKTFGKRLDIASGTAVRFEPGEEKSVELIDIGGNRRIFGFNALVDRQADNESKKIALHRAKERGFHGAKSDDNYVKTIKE

Biological target: Urease subunit alpha/Urease subunit beta (Helicobacter pylori (strain ATCC 700392 / 26695) (Campylobacterpylori)) (UniProt P69996+P14916)
Test: Inhibition of Helicobacter pylori ATCC 43504 urease assessed as ammonia production at 1 mM after 3 hrs by indophenol method
Procedure, shortened: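 Crude urease from H. pylori ATCC 43504 grown 24 h at 37 °C microaerobically in brucella broth with 10% heat-inactivated horse serum; cells PBS-washed, stored at -80 °C, sonicated 60 s in water with protease inhibitors, extract mixed 1:1 with glycerol. Enzyme (4 U) preincubated 3 h at room temperature with compound; ammonia measured by indophenol method; percent inhibition.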

## Cc1ncc([N+](=O)[O-])n1CCOc1c(C(=O)O)cc([N+](=O)[O-])cc1[N+](=O)[O-]
  inhibition: 41.5%
